# Measurements from PMC9628480, “Discovery and structural characterization of chicoric acid as a SARS-CoV-2 nucleocapsid protein ligand and RNA binding disruptor”.
# Target: SARS-CoV-2 nucleocapsid (N) protein, full-length (SARS-CoV-2 (protein amplified from …, UniProt A0A6B9VLF5 1-419))
# Experiment: fluorescence polarization
# Conditions: protein: recombinant; tags: 6xHis (pET28a-TEV), not cleaved; chain copies: 2; label: 5'-FITC
row,Binder,Kd [nM]
1,CACUCACUGUCUUUUUU (ssRNA) [RNA3 (arm after UUUUUU deleted)],149 ± 7.1
2,CACUCACUGUC (ssRNA) [RNA4 (also lacks UUUUUU)],973 ± 235
